{"source": "patent US10028933B2", "about": "“Compositions and methods for inhibiting the growth of multi-drug resistant microbes” (priority 2015, dated 2018)", "tested_on": "P. aeruginosa", "conditions": "AR-13 alone; 24 hour; n=3", "data": [{"smiles": "NS(=O)(=O)Nc1ccc(-n2nc(C(F)(F)F)cc2-c2ccc3c(ccc4ccccc43)c2)cc1", "note": "[AR-13, N-{4-[5-(Phenanthren-2-yl)-3-(trifluoromethyl)-1H-pyrazol-1-yl]phenyl}sulfuric diamide]", "values": [{"measurement": "reduction of CFU/ml in human CF and non-CF neutrophils infected with P. aeruginosa", "result": "about 10 fold"}]}]}
